Share of PSTVd loop 6 variants by leaf site

From the data files of Wu et al. 2024, doi:10.1371/journal.ppat.1012142.

PSTVd intermediate strain, loop 6: wild type UGACCGCGAG, pool pattern UNNNCGNNNG; upper and lower strand joined, each 5' to 3', the first 5 letters being the upper strand, closing pairs included.

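Three N. benthamiana plants were inoculated with the whole mutant pool. Samples came from the inoculated region at 5 days, the leaf margin at 10 and upper systemic leaves at 12.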

Values are reads per thousand in the sample; higher means more abundant, 0 means not found.
Each value is the mean of three plants.
"Pool" is the share in the plasmid pool used as inoculum, on the same scale.
The inoculated region was read from the minus strand, the other sites from the plus strand.
Samples held 36,220 to 57,551 reads, so the smallest values rest on one or two reads.
For reference, wild type rose from 20.7 per thousand in the pool to 195, 198, 203 (inoculated region), 629, 591, 734 (leaf margin) and 942, 870, 868 (systemic leaves).
Sequences that differ at fixed positions probably stem from PCR or sequencing errors, and defective variants can be carried along by functional ones.

UCGCCGACCG (pool 0.144) gave inoculated region 0.101; leaf margin 0.00773; systemic leaves 0. With UGUACGCUCG (pool 0.235) the assay gave inoculated region 0.108; leaf margin 0.00773; systemic leaves 0. With UCCUCGUCCG (pool 0.261) the assay gave inoculated region 0.0657; leaf margin 0.00773; systemic leaves 0. With UACACGCCUG (pool 0.222) the assay gave inoculated region 0.0660; leaf margin 0.0184; systemic leaves 0. For UAAACGAGAG (pool 0.170) the result was inoculated region 0.583; leaf margin 0.0584; systemic leaves 0. For UGGACGGAGG (pool 0.183) the result was inoculated region 0.0949; leaf margin 0; systemic leaves 0. UAACCGGUAG (pool 0.222) read inoculated region 0.0838; leaf margin 0; systemic leaves 0.

With UCGGCGUAUG (pool 0.353) the assay gave inoculated region 0.0656; leaf margin 0.101; systemic leaves 0. UUGCCGAACG (pool 0.575) read inoculated region 0.101; leaf margin 0.00920; systemic leaves 0. With UCAUCGGAGG (pool 0.170) the assay gave inoculated region 0.0950; leaf margin 0; systemic leaves 0. With UAUACGUAUG (pool 0.458) the assay gave inoculated region 0.154; leaf margin 0.101; systemic leaves 0. For UCCACGAUGG (pool 0.275) the result was inoculated region 0.102; leaf margin 0; systemic leaves 0. For GGACCGAUCG (pool 0.0261) the result was inoculated region 0.0364; leaf margin 0.00841; systemic leaves 0. UCAACGGGUG (pool 0.261) gave inoculated region 0.0773; leaf margin 0; systemic leaves 0.0137.

With UCCACGCUCG (pool 0.196) the assay gave inoculated region 0.0585; leaf margin 0; systemic leaves 0. For UUACCGGGGG (pool 0.0523) the result was inoculated region 0.156; leaf margin 0.0247; systemic leaves 0. For UCGCCGCGCG (pool 0.170) the result was inoculated region 0.541; leaf margin 0.109; systemic leaves 0. UUGGCGAUGG (pool 0.340) gave inoculated region 0.0844; leaf margin 0.0184; systemic leaves 0.0136. UGACAGAUUG (pool 0.0131) gave inoculated region 0.00599; leaf margin 0; systemic leaves 0. UGAUCGACCA (pool 0.0131) gave inoculated region 0; leaf margin 0; systemic leaves 0. With UCGGCGCGGG (pool 0.327) the assay gave inoculated region 0.132; leaf margin 0.0252; systemic leaves 0.

With UCGUCGAGAG (pool 0.235) the assay gave inoculated region 0.155; leaf margin 0.0184; systemic leaves 0. With UUUGCGCGAG (pool 0.144) the assay gave inoculated region 0.101; leaf margin 0.0460; systemic leaves 0.245. UGGGCGCGUG (pool 0.105) gave inoculated region 0.107; leaf margin 0; systemic leaves 0. UCGACGGCAG (pool 0.131) read inoculated region 0.0596; leaf margin 0.0169; systemic leaves 0. UGACCGUACG (pool 0.327) read inoculated region 0.205; leaf margin 0.187; systemic leaves 0.122. UGCGCGCUGG (pool 0.131) gave inoculated region 0.0768; leaf margin 0.00841; systemic leaves 0. For UUUGCGCGUG (pool 0.157) the result was inoculated region 0.0715; leaf margin 0.0155; systemic leaves 0.

For UGGCCGAGCG (pool 0.261) the result was inoculated region 0.180; leaf margin 0.00920; systemic leaves 0. For UUGGCGACAG (pool 0.366) the result was inoculated region 0.102; leaf margin 0; systemic leaves 0. With UCCGCGAAUG (pool 0.353) the assay gave inoculated region 0.0710; leaf margin 0.0261; systemic leaves 0. For UGAGCGGAGG (pool 0.314) the result was inoculated region 0.102; leaf margin 0.0161; systemic leaves 0. UUAACGACUG (pool 0.418) read inoculated region 0.102; leaf margin 0.00920; systemic leaves 0. For UUCGCGGUUG (pool 0.222) the result was inoculated region 0.0776; leaf margin 0; systemic leaves 0. UCUUCGCAAG (pool 0.261) gave inoculated region 0.131; leaf margin 0.00773; systemic leaves 0.

UCUGCGUUGG (pool 0.418) gave inoculated region 0.0825; leaf margin 0; systemic leaves 0. UCAGCGAUAG (pool 0.196) gave inoculated region 0.108; leaf margin 0.0556; systemic leaves 0.

Excerpt, the final 3 entries:

UCUUCGCAAG (pool 0.261) gave inoculated region 0.131; leaf margin 0.00773; systemic leaves 0.
UCUGCGUUGG (pool 0.418) gave inoculated region 0.0825; leaf margin 0; systemic leaves 0.
UCAGCGAUAG (pool 0.196) gave inoculated region 0.108; leaf margin 0.0556; systemic leaves 0.